{"source": "paper PMC6237300", "about": "“Influenza B viruses circulated during last 5 years in Mongolia” (PLoS ONE, 2018)", "type_in_all_cases": "biochemical", "details_in_all_cases": "WHO definition: reduced 5 to 50fold, highly reduced more than 50-fold to reference strain", "key": {"[1]": {"biological_target": "NA of B/Ulaanbaatar/1113/2014 (I114T) (Influenza B virus, UniProt U5XBU0, I114T)", "assay": "fluorescence-based NA inhibition assay (MUNANA), isolate B/Ulaanbaatar/1113/2014"}, "[2]": {"biological_target": "NA of B/Khentii/1137/2014 (G140R) (Influenza B virus, UniProt U5XBU0, G140R)", "assay": "fluorescence-based NA inhibition assay (MUNANA), isolate B/Khentii/1137/2014"}, "[3]": {"biological_target": "NA of B/Darkhan/1484/2014 (H101N, E105K) (Influenza B virus, UniProt U5XBU0, E105K/H101N)", "assay": "fluorescence-based NA inhibition assay (MUNANA), isolate B/Darkhan/1484/2014"}, "[4]": {"biological_target": "NA of B/Ulaanbaatar/1495/2014 (E105K) (Influenza B virus, UniProt U5XBU0, E105K)", "assay": "fluorescence-based NA inhibition assay (MUNANA), isolate B/Ulaanbaatar/1495/2014"}}, "data": [{"smiles": "CC(=O)N[C@H]1[C@H]([C@H](O)[C@H](O)CO)OC(C(=O)O)=C[C@@H]1N=C(N)N", "values": [{"measurement": "susceptibility category", "setting": "[1]", "value": "sensitive"}, {"measurement": "susceptibility category", "setting": "[2]", "value": "sensitive"}, {"measurement": "susceptibility category", "setting": "[3]", "value": "reduced susceptibility"}, {"measurement": "susceptibility category", "setting": "[4]", "value": "reduced susceptibility"}]}]}
